A mixed list of measured activities; the numbers were collected in NIAID ChemDB.

Common to all: tests in culture; organism: Vaccinia virus

An empty or dashed field is not shown.

CCCn1cnc(=N)c2[nH]cnc21 ; cell line: BSC-1 ; endpoint: inhibition ; dose: 25 µg/mL ; value: 0%
Nc1nccc2c1ncn2[C@@H]1CC[C@@H](O)[C@H]1O ; endpoint: MIC ; value: 0.02 µg/mL
O=P1(O)OCC2O[C@@H](n3cnc4c(NO)ncnc43)[C@H](O)C2O1 ; endpoint: MIC ; value: 3.2–10 µg/mL
O=c1[nH]c(=O)n([C@H]2C[C@H](O)[C@@H](CO)O2)cc1/C=C/C(F)(F)F ; cell line: PRK ; endpoint: EC99 ; value: >100 µg/mL
N=c1ncn(CC2CCCCC2)c2nc[nH]c12 ; cell line: BSC-1 ; endpoint: inhibition ; dose: 25 µg/mL ; value: 0%
Cn1cc(NC(=O)c2cc(NC(=O)c3cc(NC(=O)c4cc(NC(=O)c5cc(NC=O)cn5C)cn4C)cn3C)cn2C)cc1C(=O)NCCC(=N)N ; strain: Noguchi ; cell line: BSC-1 ; endpoint: inhibition ; dose: 100 µg/mL ; value: 57%
NNC(=O)Cc1nc2n(n1)CCCCC2 ; endpoint: MIC ; value: >400 µg/mL
Cc1cccc(Cn2cnc(=N)c3[nH]cnc32)c1 ; cell line: BSC-1 ; endpoint: inhibition ; dose: 12 µg/mL ; value: 0%
Nc1nccc2c1ncn2[C@@H]1C=C(CO)[C@@H](O)[C@H]1O ; endpoint: MIC ; value: 0.07 µg/mL
Cc1nc(Cc2n[nH]c(=S)n2-c2ccccc2)nn1C ; endpoint: MIC ; value: 400 µg/mL
Nc1nccc2c1ncn2[C@@H]1C=C[C@@H](O)[C@H]1O ; endpoint: MIC ; value: 0.7 µg/mL
O=c1[nH]c(=O)n([C@H]2C[C@H](O)[C@@H](CO)O2)cc1/C=C/Br ; cell line: PRK ; endpoint: EC99 ; value: 22 µg/mL
CSc1ncnc2c1ncn2[C@@H]1OC2COP(=O)(O)OC2[C@H]1O ; endpoint: MIC ; value: 3.2 µg/mL
Cc1ccc(Cn2cnc(=N)c3[nH]cnc32)cc1 ; cell line: BSC-1 ; endpoint: inhibition ; dose: 50 µg/mL ; value: 10%
CCSC1NN=C(Cc2nc(C)n(C)n2)N1c1ccccc1 ; endpoint: MIC ; value: 80 µg/mL
Cn1cc(NC(=O)c2cc(NC(=O)c3cc(NC=O)cn3C)cn2C)cc1C(=O)NCCC(=N)N ; strain: Noguchi ; cell line: BSC-1 ; endpoint: inhibition ; dose: 100 µg/mL ; value: 100%
Nc1ncnc2c1ncn2[C@@H]1CC[C@@H](O)[C@H]1O ; endpoint: MIC ; value: 0.02 µg/mL
Cc1nc(CC(=O)NN)nn1C ; endpoint: MIC ; value: >400 µg/mL
Nc1ncnc2c1ncn2[C@@H]1C=C[C@@H](O)[C@H]1O ; endpoint: MIC ; value: 0.7 µg/mL
CCc1nc(CC(=O)NN=C(C)C)nn1CC ; endpoint: MIC ; value: >400 µg/mL
CCn1cnc(=N)c2[nH]cnc21 ; cell line: BSC-1 ; endpoint: inhibition ; dose: 50 µg/mL ; value: 0%
Nc1ncnc2c1ncn2C[C@@H](CO)OCP(=O)(O)O ; endpoint: MIC ; value: 0.7 µg/mL

3 of the rows above, restated:

structure	strain	cell line	endpoint	dose	value
CCc1nc(CC(=O)NN=C(C)C)nn1CC			MIC		>400 µg/mL
Nc1nccc2c1ncn2[C@@H]1C=C[C@@H](O)[C@H]1O			MIC		0.7 µg/mL
Cc1nc(Cc2n[nH]c(=S)n2-c2ccccc2)nn1C			MIC		400 µg/mL

ECn: concentration that inhibits the pathogen or its effect by n%. Rows are shuffled and stem from different studies. Two numbers with a dash give a range or band. Inhibition is in % at the dose shown (toxicity tests: loss of growth or viability).